PubChem BioAssay AID624099 | ICCB-Longwood | 2012
Assay: 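Knock-downs relieving repression by E2 of an HPV18 LCR luciferase reporter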 (primary screen). Cells: human C33A cervical carcinoma cells (HPV-negative) stably expressing BPV1 E2 and an HPV18 LCR luciferase reporter. Knock-down reagent: siRNA pool against human genes, 40 nM. Timing: 72 h. Measured: 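HPV18 LCR reporter light per well, converted to plate-wise z-scores that exclude control wells, and averaged over triplicate plates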. Direction: mean z-score and z-score: higher = stronger reporter signal, weaker E2 silencing. Rule for the call: 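Mean z ≥ 2 together with z ≥ 2 in two or more of the three replicates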.
Shown is one part, drawn at random, of about 21,000 deposited reagents. 497 of them (2.4%) were called active. 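Higher z means weaker E2 silencing; only reporter increases were scored, and knock-downs that hurt cell survival may mask genuine repressor factors.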 No sequences are given here.

Knock-down of MYO1G (myosin IG) resulted in: mean z-score -0.19; z-score, replicate A = -0.44; z-score, replicate B = -0.57; z-score, replicate C = 0.43; inactive.
Knock-down of DEPP1 (DEPP autophagy regulator 1) came out at: mean z-score 0.8; z-score, replicate A = 1.2; z-score, replicate B = 0.47; z-score, replicate C = 0.74; inactive.
After knock-down of LINC00305 (long independently transcribed non-coding RNA 305), the screen gave mean z-score -0.98; z-score, replicate A = -1.23; z-score, replicate B = -0.91; z-score, replicate C = -0.81; inactive.
After knock-down of FASTKD4 (FASTK mitochondrial RNA regulator 4) the results were mean z-score -1.88; z-score, replicate A = -1.59; z-score, replicate B = -2.07; z-score, replicate C = -1.98; inactive.
PRSS2 (serine protease 2) gave mean z-score 1.49; z-score, replicate A = 1.88; z-score, replicate B = 1.43; z-score, replicate C = 1.16; inactive.
Silencing of KATNIP (katanin interacting protein) gave: mean z-score 0.67; z-score, replicate A = 0.85; z-score, replicate B = 0.54; z-score, replicate C = 0.62; inactive.
After knock-down of RAB5C (RAB5C, member RAS oncogene family), the record shows mean z-score -0.17; z-score, replicate A = -0.01; z-score, replicate B = -0.34; z-score, replicate C = -0.16; inactive.
SLC47A2 showed mean z-score 0.47; z-score, replicate A = 0.8; z-score, replicate B = 0.38; z-score, replicate C = 0.23; inactive.
OR5H15 (olfactory receptor family 5 subfamily H member 15) showed mean z-score -0.17; z-score, replicate A = 0.04; z-score, replicate B = -0.04; z-score, replicate C = -0.51; inactive.
AMY2B (amylase alpha 2B) showed mean z-score -0.2; z-score, replicate A = -0.36; z-score, replicate B = 0.03; z-score, replicate C = -0.26; inactive.
With knock-down of ZNF589 (zinc finger protein 589) the results were mean z-score -0.71; z-score, replicate A = -0.75; z-score, replicate B = -0.53; z-score, replicate C = -0.84; inactive.
ZNF648 (zinc finger protein 648) scored mean z-score 0.8; z-score, replicate A = 1.04; z-score, replicate B = 0.6; z-score, replicate C = 0.78; inactive.

Copied from the list:
Entry for KATNIP (katanin interacting protein) under “Outcome”: inactive
Result for RAB5C (RAB5C, member RAS oncogene family) in “mean z-score”: -0.17
